Compound potency records, mixed from different reports. Data source: NIAID ChemDB in PubChem.

Shared fields: growth or infection tests; agent: HIV-1

ECn: concentration that inhibits the pathogen or its effect by n%. Blank or dashed fields: not listed here. Lines come from different laboratories, so protocols vary.

structure,strain or isolate,read by,read-out,cell line,changes,value
Cc1cn([C@H]2C[C@H](N=[N+]=[N-])[C@@H](CO)O2)c(=O)[nH]c1=O,LAI,plaque count,EC50,HT4LACZ-1 + HT4 LacZ-1,-,0.006 µM
CCn1c(=O)c(C)cn([C@@H]2O[C@H](CO[Si](C)(C)C(C)(C)C)C3(OS(=O)(=O)C=C3N)[C@H]2O[Si](C)(C)C(C)(C)C)c1=O,IIIB,cytopathic effect / MTT,EC50,MT-4,RT-E138K,36.57 µM
CC(=O)N1CCC(C(=O)N(CCCN2CCC(Cc3ccc(C(N)=O)cc3)CC2)c2ccc(C)c(Cl)c2)CC1,R5 subtype C_2 recombinant,luciferase,EC50,U87 (CD4+ CCR5+) + U87,-,0.0074 µM
Cc1ccnc2c1NC(=O)c1cccnc1N2C1CC1,IIIB,syncytia,EC50,CEM,RT-Y181C,8.6 µM
CNC(=O)[C@H](CCSC)NC(=O)[C@H](OCc1ccccc1)[C@H](O)[C@@H](O)[C@@H](OCc1ccccc1)C(=O)N[C@@H](CCSC)C(=O)NC,-,cytopathic effect,EC50,MT-4,-,>58 µM
CCc1cc(NCc2nc3c(Cl)ccc(Cl)c3o2)c(=O)[nH]c1C,IIIB,syncytia,EC50,CEM,-,0.02 µM
CC(C)(C)C(=O)SCCOC(=O)P(=O)(OCCSC(=O)C(C)(C)C)OCCSC(=O)C(C)(C)C,IIIB,cytopathic effect / MTT,EC50,MT-4,-,>10 µM
CC(C)CN(C[C@@H](O)[C@H](Cc1ccccc1)NC(=O)O[C@@H]1[C@@H]2CCCO[C@@H]2O[C@H]1C)S(=O)(=O)c1ccc(N)cc1,MM,p24,EC50,PBMC,PR-L10I K43T M46I I54V L63P A71V V82A L90M Q92K,0.1 µM
CC(C)[C@H](NC(=O)c1ccc2ccccc2n1)C(=O)N[C@@H](Cc1ccccc1)[C@H](O)CN1CC[C@@H](OCc2ccncc2)C[C@H]1C(=O)NC(C)(C)C,DDIR,p24 / ELISA / antigen,EC50,PBMC,-,0.005 µM
COc1ccc2c(c1)N(C(=O)OC(C)C)[C@@H](CSC)C(=S)N2,IIIB WT,syncytia,EC50,CEM,-,0.00294 µM
C[C@H]1O[C@@H]2OCCC[C@@H]2[C@@H]1OC(=O)N[C@@H](Cc1ccccc1)[C@H](O)CN1C[C@H]2CCCC[C@H]2C[C@H]1C(=O)NC(C)(C)C,LAI,cytopathic effect / MTT,EC50,MT-2,-,0.005 µM
CC(C)(C)C(=O)SCCCCOP(=O)(OCCCCSC(=O)C(C)(C)C)OC[C@@H]1CC[C@H](n2cnc3c(N)ncnc32)O1,LAI,RT activity,EC50,CEM + CEM TK-,-,>10 µM
Cc1cn([C@@H]2O[C@H](CO[Si](C)(C)C(C)(C)C)C3(OS(=O)(=O)C=C3N)[C@H]2O[Si](C)(C)C(C)(C)C)c(=O)n(C)c1=O,Recombinant mutant,cytopathic effect / MTT,EC50,MT-4,RT-E138A,0.646 µM
COC(=O)c1[nH]c2ccccc2c1Sc1ccccc1,IIIB,p24 / ELISA,EC50,MT-4,-,>3 µM
CNC(=O)[C@@H](NC(=O)[C@H](OCc1ccc(/C=C/C(=O)OC)cc1)[C@H](O)[C@@H](O)[C@@H](OCc1ccc(/C=C/C(=O)OC)cc1)C(=O)N[C@H](C(=O)NC)C(C)C)C(C)C,-,cytopathic effect,EC50,MT-4,-,2.58 µM
O=S(Cc1[nH]c2ccccc2c1Sc1ccccc1)c1ccccc1,IIIB,p24 / ELISA,EC95,MT-4,-,0.4 µM
CCOCn1c(Sc2cc(C)cc(C)c2)c(CC)c(=O)[nH]c1=O,IIIB,cytopathic effect / MTT,EC50,MOLT-4,-,0.0034 µM
CNC(=O)C(NC(=O)[C@H](OCc1ccccc1)[C@H](O)[C@@H](O)[C@@H](OCc1ccccc1)C(=O)N[C@H](C(=O)NC)[C@@H](C)O)[C@@H](C)O,-,cytopathic effect,EC50,MT-4,-,>80 µM
Cc1cc(O)cc(S(=O)(=O)c2cccc(N)c2C#N)c1,-,β-galactosidase,EC50,HeLa + HELA CD4+,RT-G190A,0.66 µM
CC(C)=CCN1Cc2cc(Cl)cc3[nH]c(=S)n(c23)C[C@@H]1C,Recombinant mutant,cytopathic effect / MTT,EC50,MT-4,RT-E138A,0.182 µM
CCOCn1c(Sc2cc(C)cc(C)c2)c(CC)c(=O)[nH]c1=S,A012D,cytopathic effect / MTT,EC50,MT-4,-,0.0027 µM
CC(C)[C@H](NC(=O)OCc1ccccc1)C(=O)N[C@@H](Cc1ccccc1)[C@@H](O)[C@H](O)[C@H](Cc1ccccc1)NC(=O)[C@@H](NC(=O)OCc1ccccc1)C(C)C,RF,-,EC90,MT-2,-,0.04 µg/mL
Cc1ccccc1CNC(=O)[C@H]1N(C[C@@H](O)C[C@@H](Cc2ccccc2)C(=O)N[C@H]2c3ccccc3OC[C@H]2O)CSC1(C)C,-,p24,EC95,MT-4,-,0.25 µM
CNC(=O)[C@@H](NC(=O)[C@H](OCc1ccc(C2=C(O)C(=O)CCC2)cc1)[C@H](O)[C@@H](O)[C@@H](OCc1ccc(C2=C(O)C(=O)CCC2)cc1)C(=O)N[C@H](C(=O)NC)C(C)C)C(C)C,-,cytopathic effect,EC50,MT-4,-,5.6 µM
C[C@H](Cn1cnc2c(N)ncnc21)OCP(=O)(O)O,DJ259,p24 / ELISA,EC50,-,-,0.95 µM
Nc1nc(=O)n([C@@H]2CS[C@H](CO)O2)cc1F,BI-RG587-resistant,RT activity,EC50,PBMC,-,0.0001 µM
Cc1cc(Cl)cc(S(=O)(=O)c2cccc(N)c2C#N)c1,-,β-galactosidase,EC50,HeLa + HELA CD4+,RT-Y188C,1.7 µM
CC(C)CN(C[C@@H](O)[C@H](Cc1ccccc1)NC(=O)O[C@H]1CCOC1)S(=O)(=O)c1ccc(N)cc1,-,cytopathic effect,EC50,MT-4,-,0.08 µM
CNC(=O)c1[nH]c2ccccc2c1Sc1ccccc1,IIIB,p24 / ELISA,EC95,MT-4,-,0.8 µM
CNC(=O)[C@@H](NC(=O)[C@H](OCc1ccccc1)[C@H](O)[C@@H](O)[C@@H](OCc1ccccc1)C(=O)N[C@H](C(=O)NC)C(C)C)C(C)C,-,cytopathic effect,EC50,MT-4,-,1.32 µM
Cc1cc(/C=C/C#N)cc(C)c1Oc1ccnc(S(=O)(=O)CC(=O)Nc2ccc(F)cc2)n1,-,MTT,EC50,MT-4,K103N,0.006 µM
Nc1ncnc2c1ncn2[C@H]1CC[C@@H](CO)O1,LAI,RT activity,EC50,CEM + CEM-SS,-,1.5 µM
CCCCCCCCOC(=O)P(=O)(O)OC[C@H]1O[C@@H](n2cc(C)c(=O)[nH]c2=O)C[C@@H]1N=[N+]=[N-],LAI,RT activity,EC50,CEM + CEM TK-,-,>100 µM
Cc1cn([C@H]2C[C@H](N=[N+]=[N-])[C@@H](CO)O2)c(=O)[nH]c1=O,2:DR1 AZT-resistant,RT activity,EC50,PBMC,-,2 µM
C[C@H](NC(=O)[C@H](CCCN=C(N)N)NC(=O)c1ccc(CNCc2ccccn2)cc1)c1cccc2ccccc12,YU-11 X4 clinical isolate,p24,EC50,PBMC,-,0.025 µM
Cc1cn([C@H]2C=C[C@@H](CO)O2)c(=O)[nH]c1=O,Clinical isolate,recombinant virus assay,EC50,MT-2,D67N/T69N/K70R/A98G/M184V/G190S/T215F/K219Q,1.344 µM
Cc1cn([C@H]2C[C@H](N=[N+]=[N-])[C@@H](COP(=O)(OCCCCSC(=O)C(C)(C)C)OCCCCSC(=O)C(C)(C)C)O2)c(=O)[nH]c1=O,LAI,RT activity,EC50,CEM + CEM TK-,-,>10 µM
Cc1cc(-c2ccc(C#N)cc2)cc(C)c1Oc1ccnc(S(=O)(=O)CC(=O)Nc2ccc(C#N)cc2)n1,IIIB,MTT,EC50,MT-4,L100I,0.008 µM
CC[C@H](C)[C@H](NC(=O)Cc1ccccn1)C(=O)N[C@@H](Cc1ccccc1)[C@@H](O)[C@H](O)[C@H](Cc1ccccc1)NC(=O)[C@@H](NC(=O)Cc1ccccn1)[C@@H](C)CC,RF,-,EC90,MT-2,-,1.5 µg/mL
CC(C)CN(C[C@@H](O)[C@H](Cc1ccccc1)NC(=O)O[C@H]1CCOC1)S(=O)(=O)c1ccc(N)cc1,HXB2,cytopathic effect,EC50,MT-2,-,0.033 µM
Cc1cc(Br)cc(S(=O)(=O)c2cccc(N)c2C#N)c1,-,β-galactosidase,EC50,HeLa + HELA CD4+,RT-V108I,0.017 µM
Cc1cc(C)c(Oc2ccc([N+](=O)[O-])c(NC3CCN(Cc4ccc(C(N)=O)cc4)CC3)n2)c(C)c1,IIIB,MTT,EC50,MT-4,Resistant strain (K103N + Y181C),5.8 µM
CC(C)(C)[Si](C)(C)OC[C@H]1O[C@@H](n2cnc3nc[nH]c(=O)c32)[C@H](O[Si](C)(C)C(C)(C)C)C12OS(=O)(=O)C=C2N,IIIB,trypan blue,EC50,MT-4,-,0.09 µg/mL
Cc1cn([C@@H]2O[C@H](CO[Si](C)(C)C(C)(C)C)C3(OS(=O)(=O)C=C3N)[C@H]2O[Si](C)(C)C(C)(C)C)c(=O)n(C)c1=O,IIIB,syncytia,EC50,CEM,-,0.05 µM
CN(C)C(=O)c1[nH]c2ccccc2c1Sc1ccccc1,IIIB,p24 / ELISA,EC50,MT-4,-,>3 µM
Cc1cn(C2CC(N=[N+]=[N-])C(COP(=O)(OC[C@H]3O[C@@H](n4cc(C)c(=O)[nH]c4=O)C[C@@H]3N=[N+]=[N-])C(=O)OCCSC(=O)C(C)(C)C)O2)c(=O)[nH]c1=O,LAI,RT activity,EC50,CEM + CEM TK-,-,>10 µM
CC(C)=CCN1Cc2cccc3[nH]c(=S)n(c23)C[C@@H]1C,BI-RG587-resistant,-,EC50,HT4 + HT4-6C,-,1.7 µM
CN(C)c1ncnc2c1ncn2[C@@H]1O[C@H](CO[Si](C)(C)C(C)(C)C)C2(OS(=O)(=O)C=C2N)[C@H]1O[Si](C)(C)C(C)(C)C,IIIB,syncytia,EC50,C8166,-,0.8 µg/mL
CCCCCCCCOC(=O)P(=O)(OC[C@H]1O[C@@H](n2cc(C)c(=O)[nH]c2=O)C[C@@H]1N=[N+]=[N-])OC[C@H]1O[C@@H](n2cc(C)c(=O)[nH]c2=O)C[C@@H]1N=[N+]=[N-],LAI,RT activity,EC50,CEM + CEM TK-,-,>1 µM
CCOCn1c(Cc2cc(C)cc(C)c2)c(CC)c(=O)[nH]c1=O,HE,cytopathic effect / MTT,EC50,MT-4,-,0.0076 µM
CCOCn1c(Sc2ccccc2)c(CC)c(=O)[nH]c1=S,IIIB,-,EC50,CEM,-,0.004 µg/mL
Cc1cc(C#N)cc(C)c1Oc1nc(Nc2ccc(C#N)cc2)nc(N)c1Br,IIIB,MTT,EC50,MT-4,-,0.006 µM
CC(C)CN(C[C@@H](O)[C@H](Cc1ccccc1)NC(=O)O[C@H]1[C@H]2CCCO[C@H]2O[C@@H]1C)S(=O)(=O)c1ccc(N)cc1,LAI,cytopathic effect / MTT,EC50,MT-2,-,0.03 µM
CC(=O)c1ccc(C)cc1NC(C(N)=O)c1c(Cl)cccc1Cl,Recombinant mutant,cytopathic effect / MTT,EC50,MT-4,RT-A98S E138A,0.048 µM
CC(C)(C)[Si](C)(C)OC[C@H]1O[C@@H](n2cnc3c(=O)[nH]cnc32)[C@H](O[Si](C)(C)C(C)(C)C)C12OS(=O)(=O)C=C2N,IIIB,trypan blue,EC50,MT-4,-,0.14 µg/mL
Cc1cn([C@H]2C[C@H](N=[N+]=[N-])[C@@H](CO)O2)c(=O)[nH]c1=O,IIIB,cytopathic effect / XTT,EC50,CEM + CEM-SS,-,0.004 µM
CNC(=O)[C@H](Cc1ccccc1)NC(=O)[C@H](OCc1ccccc1)[C@H](O)[C@@H](O)[C@@H](OCc1ccccc1)C(=O)N[C@@H](Cc1ccccc1)C(=O)NC,-,cytopathic effect,EC50,MT-4,-,>140 µM
CC(C)=CCN1Cc2cccc3[nH]c(=S)n(c23)C[C@@H]1C,IIIB,syncytia,EC50,CEM,-,0.026 ± 0.006 µg/mL
Cc1cn([C@H]2C[C@H](N=[N+]=[N-])[C@@H](CO)O2)c(=O)[nH]c1=O,IIIB,cytopathic effect / MTT,EC50,MT-4,-,0.003 µM
CCOCn1c(Sc2ccccc2)c(CC)c(=O)[nH]c1=O,IIIB,syncytia,EC50,CEM,RT-C181I,0.97 µM
Nc1nc(=O)n([C@@H]2CS[C@H](CO)O2)cc1F,Clinical isolate,recombinant virus assay,EC50,MT-2,A62V/T69ins/V75I/A98G/K103S/G190A,2.709 µM
Cn1cnc2ncn([C@@H]3O[C@H](CO[Si](C)(C)C(C)(C)C)C4(OS(=O)(=O)C=C4N)[C@H]3O[Si](C)(C)C(C)(C)C)c2c1=O,IIIB,syncytia,EC50,CEM,-,0.05 µg/mL
CC(C)=CCN1Cc2cc(Cl)cc3[nH]c(=S)n(c23)C[C@@H]1C,IIIB,p24 / ELISA,EC95,MT-4,-,0.4 µM
CCc1c(Sc2ccccc2)n(COCc2ccccc2)c(=O)[nH]c1=O,IIIB,syncytia,EC50,CEM,RT-Y181C,0.3 µM
Cc1cc(C#N)cc(C)c1Oc1ccc(N)c(NC2CCN(Cc3ccncc3)CC2)n1,IIIB,MTT,EC50,MT-4,Resistant strain (K103N + Y181C),1 µM
O=S1(=O)N(Cc2ccc(CCO)cc2)[C@H](COc2ccccc2)[C@H](O)[C@@H](O)[C@@H](COc2ccccc2)N1Cc1ccc(CCO)cc1,-,cytopathic effect,EC50,MT-4,-,>75 µM
Cc1cc(C)c(Nc2ccc([N+](=O)[O-])c(NC3CCN(Cc4ccc(S(N)(=O)=O)cc4)CC3)n2)c(C)c1,IIIB,MTT,EC50,MT-4,Resistant strain (K103N + Y181C),>5.9 µM
CNC(=O)c1[nH]c2ccc(Cl)cc2c1Sc1ccccc1,IIIB,p24 / ELISA,EC50,MT-4,-,<0.2 µM
Cc1cc(C)c(Oc2ccc(N)c(NC3CCN(Cc4ccc(C(N)=O)cc4)CC3)n2)c(C)c1,IIIB,MTT,EC50,MT-4,-,0.058 µg/mL
COc1cc(C(F)(F)F)cc(S(=O)(=O)c2cccc(N)c2C#N)c1,-,β-galactosidase,EC50,HeLa + HELA CD4+,RT-Y188C,0.3 µM